Source: ChEMBL document CHEMBL3885881, “DrugMatrix”

Organism: Rattus norvegicus
Experiment: DrugMatrix - Regimen: Daily Repeat
Assay type: toxicity, organism-based, Sprague-Dawley
Parameters: regimen Daily Repeat, gender Male, age 6-8 weeks
Conditions: in vivo, po, 72 h, tissue Blood, route oral GAVAGE, time 3 day, vehicle 100 % WATER

Sequence STANNOUS FLUORIDE has an MONOCYTE (9 mg/kg, dose level Low) of 2.33% and an MONOCYTE (90 mg/kg, dose level High) of 2.33%.
